Compound potency records, mixed from different reports. Data source: NIAID ChemDB in PubChem.

All rows: whole-cell or culture tests; species: Mycobacterium avium

MIC50, MIC90 and the like: level of inhibition, or share of isolates inhibited. ECn is the concentration giving n% inhibition of infection, replication or growth. An empty or dashed field is not shown. Rows are shuffled and stem from different studies. Inhibition is in % at the dose shown (toxicity tests: loss of growth or viability).

smiles | strain | method | setting | read-out | dose | value
CO[C@H]1/C=C/O[C@@]2(C)Oc3c(C)c(O)c4c(O)c(c(/C=N/N5CCN(C6CCCC6)CC5)c(O)c4c3C2=O)NC(=O)/C(C)=C\C=C\[C@H](C)[C@H](O)[C@@H](C)[C@@H](O)[C@@H](C)[C@H](OC(C)=O)[C@@H]1C | 36 strains | - | - | MIC90 | - | 50 µg/mL
C=Cc1cn(COC(CO)CO)c(=O)[nH]c1=O | ATCC 25291 | - | - | EC50 | - | >100 µg/mL
Cc1cccc(C(N)=Nc2nc(-c3ccccn3)cc3ccccc23)c1 | 101 | - | - | MBC | - | 2 µg/mL
COc1ccc(Nc2nnc(-c3ccncc3)o2)cc1 | MY330/88 | broth dilution | 21 d | MIC100 | - | >125 µM
O=c1[nH]c(=O)n([C@H]2C[C@H](O)[C@@H](CO)O2)cc1Cl | ATCC 25291 | - | - | EC50 | - | >50 µg/mL
O=c1[nH]c(=O)n(COC(CO)CO)cc1I | ATCC 25291 | - | - | EC50 | - | >100 µg/mL
COc1ccc(-n2c(=O)oc3cc(Cl)ccc3c2=O)cc1 | CNCTC MY330/88 | - | - | MIC | - | 8 µM
COc1ccc2oc(=O)n(-c3ccccc3)c(=S)c2c1 | MY330/88 | - | 14 d | MIC | - | 32 µM
CCc1nc2ccc(Cl)cn2c1C(=O)NCc1ccc(N2CCN(c3ccc(OC(F)(F)F)cc3)[C@@H](C)C2)c(F)c1 | - | fluorescence | - | inhibition | 0.003 µM | 85%
CC1COc2c(C3(N)CC3)c(F)cc3c(=O)c(C(=O)O)cn1c23 | 18 strains | - | - | MIC50 | - | 50 µg/mL
CCCCCOc1ccccc1NC(=O)OCCN1CCOCC1 | MY330/88 | - | - | MIC | - | 125 µM
CCc1cn(C2OC(CO)CC2F)c(=O)[nH]c1=O | ATCC 25291 | resazurin | - | MIC25 | - | 100 µg/mL
CCCCCCOc1ccccc1NC(=O)OCCN(C)C | MY330/88 | - | - | MIC | - | 32 µM
Cc1cn(COCCO)c(=O)[nH]c1=O | ATCC 25291 | - | - | EC50 | - | >100 µg/mL
Cc1ccc2oc(=O)n(-c3cccc([N+](=O)[O-])c3)c(=O)c2c1 | CNCTC MY330/88 | - | - | MIC | - | 32 µM
CCCCCCCOc1ccccc1NC(=O)OCCN(C)C | MY330/88 | - | - | MIC | - | 8 µM
N/C(=N\NC(CC(=O)c1cccc(Br)c1)c1cccnc1)c1ccccn1 | 17 strains | - | - | MIC90 | - | 160 µg/mL
C[C@H]1CN(c2c(F)cc3c(=O)c(C(=O)O)cn(C4CC4)c3c2OC(F)F)CCN1 | 36 strains | - | - | MIC90 | - | 3.13 µg/mL
O=c1oc2ccccc2c(=O)n1-c1ccc(C(F)(F)F)cc1 | CNCTC MY330/88 | - | - | MIC | - | 16 µM
CCc1cn([C@H]2C[C@H](O)[C@@H](CO)O2)c(=O)[nH]c1=O | ATCC 25291 | - | - | EC50 | - | >50 µg/mL
COc1ccc2oc(=O)n(-c3cccc(F)c3)c(=S)c2c1 | MY330/88 | - | 14 d | MIC | - | 62.5 µM
CCc1cc(C(N)=S)ccn1 | 3350-4 | - | - | MBC | - | 80 µg/mL
Cc1ccc2oc(=O)n(-c3ccc(C(F)(F)F)cc3)c(=S)c2c1 | MY330/88 | - | 21 d | MIC | - | 32 µM
CCCCCCCCCCC#Cc1cn(COCCO)c(=O)n(C#CCCCCCCCCCC)c1=O | ATCC 25291 | - | - | EC50 | - | >100 µg/mL
CCc1nc2cc(F)ccn2c1C(=O)NCc1ccc(N2C[C@H](C)N(c3ccc(OCC(F)(F)F)nc3)C[C@H]2C)c(F)c1.Cl | - | fluorescence | - | inhibition | 0.12 µM | 85%
O=c1oc2ccc(F)cc2c(=O)n1-c1ccc(Br)cc1 | CNCTC MY330/88 | - | - | MIC | - | 8 µM
CCCCOc1cccc(NC(=O)OCCN2CCCCC2)c1 | MY330/88 | - | - | MIC | - | 125 µM
CC[C@H]1OC(=O)[C@H](C)[C@@H](O[C@H]2C[C@@](C)(OC)[C@@H](O)[C@H](C)O2)[C@H](C)[C@@H](O[C@@H]2O[C@H](C)C[C@H](N(C)C)[C@H]2O)[C@](C)(OC)C[C@@H](C)C(=O)[C@H](C)[C@@H](O)[C@]1(C)O | 1435 | - | - | MBC | - | 32 µg/mL
CC1COc2c(N3CCN(C)CC3)c(F)cc3c(=O)c(C(=O)O)cn1c23 | ATCC 25291 | - | - | Median MIC | - | 8 µg/mL
Cc1cccc(C(=O)CC(N/N=C(\N)c2ccccn2)c2ccccn2)c1 | 17 strains | - | - | MIC90 | - | 160 µg/mL
O=C(NNC(=O)c1ccncc1)Nc1c(Cl)cc(Cl)cc1Cl | MY330/88 | broth dilution | 14 d | MIC100 | - | >125 µM
Cc1onc(-c2ccccc2Cl)c1C(=O)N[C@@H]1C(=O)N2[C@@H]1SC(C)(C)[C@@H]2C(=O)O | ATCC 25291 | - | - | Median MIC | - | >256 µg/mL
C=CCS/C(N)=N\N=C\c1ccc(F)cc1 | Clinical isolates | - | - | Geometric mean MIC | - | 10.45 µg/mL
Cc1ccc(-n2c(=S)oc3ccc(C)cc3c2=S)cc1 | MY330/88 | - | 14 d | MIC | - | 2 µM
CC(C)N1CCN(c2cc3c(cc2F)c(=O)c(C(=O)O)cn3C2CC2)CC1 | - | - | - | MIC50 | - | 1 µg/mL
FC(F)(F)c1ccc(-n2c(=S)oc3ccc(Br)cc3c2=S)cc1 | MY330/88 | - | 21 d | MIC | - | 125 µM
COc1cccc(NC(=O)OCCN2CCCCC2)c1 | MY330/88 | - | - | MIC | - | 1000 µM
CN1CCN(c2cc3c(cc2F)c(=O)c(C(=O)O)cn3C2CC2)CC1 | - | - | - | MIC90 | - | 16 µg/mL
CN[C@@H]1[C@H](O[C@H]2[C@H](O[C@H]3[C@H](O)[C@@H](O)[C@H](N=C(N)N)[C@@H](O)[C@@H]3N=C(N)N)O[C@@H](C)[C@]2(O)C=O)O[C@@H](CO)[C@H](O)[C@H]1O | 100 strains | - | - | MIC50 | - | 2.53 µg/mL
O=c1[nH]c(=O)n([C@H]2C[C@H](O)[C@@H](CO)O2)cc1I | ATCC 25291 | - | - | inhibition | 50 µg/mL | 0%
CCCCCCCOc1ccc(NC(=O)OCCN2CCOCC2)cc1 | MY330/88 | - | - | MIC | - | 16 µM
NC(=S)c1cnccn1 | ATCC 25291 | - | - | MBC | - | 200 µg/mL
Cc1ccc2c(=O)n(-c3ccccc3)c(=O)oc2c1 | CNCTC MY330/88 | - | - | MIC | - | 31 µM
O=c1oc2ccc(F)cc2c(=S)n1-c1cccc(F)c1 | MY330/88 | - | 21 d | MIC | - | 16 µM
Cc1ccc(-n2c(=O)oc3ccc(Br)cc3c2=O)cc1 | CNCTC MY330/88 | - | - | MIC | - | 31 µM
CCc1cn(C2OC(COC(C)=O)C(OC(C)=O)C2F)c(=O)[nH]c1=O | ATCC 25291 | resazurin | - | MIC35 | - | 100 µg/mL
CCCCCCOc1ccc(NC(=O)OCCN2CCOCC2)cc1 | MY330/88 | - | - | MIC | - | 16 µM
O=c1[nH]c(=S)c(CO)cn1C1OC(CO)C(O)C1O | ATCC 25291 | resazurin | - | MIC73 | - | 100 µg/mL
CCCCCCOc1ccccc1NC(=O)OCCN1CCOCC1 | MY330/88 | - | - | MIC | - | 62.5 µM
O=c1oc2ccccc2c(=O)n1-c1cccc([N+](=O)[O-])c1 | CNCTC MY330/88 | - | - | MIC | - | 31 µM
CO[C@H]1/C=C/O[C@@]2(C)Oc3c(C)c(O)c4c(O)c(c5c(c4c3C2=O)NC2(CCN(CC(C)C)CC2)N=5)=NC(=O)/C(C)=C\C=C\[C@H](C)[C@H](O)[C@@H](C)[C@@H](O)[C@@H](C)[C@H](OC(C)=O)[C@@H]1C | - | - | - | Median MIC | - | 1 µg/mL
NC[C@H]1O[C@H](O[C@H]2[C@H](O)[C@@H](O[C@H]3O[C@H](CO)[C@@H](O)[C@H](N)[C@H]3O)[C@H](N)C[C@@H]2N)[C@H](O)[C@@H](O)[C@@H]1O | ATCC 25291 | - | - | Median MIC | - | 2.5 µg/mL
Cc1ccc(-n2c(=O)oc3ccc(F)cc3c2=S)cc1 | MY330/88 | - | 14 d | MIC | - | 8 µM
CC1COc2c(C3(N)CC3)c(F)cc3c(=O)c(C(=O)O)cn1c23 | 36 strains | - | - | MIC90 | - | 100 µg/mL
O=C(NNC(=O)c1ccncc1)Nc1ccc(Br)c(C(F)(F)F)c1 | MY330/88 | broth dilution | 21 d | MIC100 | - | >125 µM
N/C(=N\NC(CC(=O)c1cccc(Cl)c1)c1cccnc1)c1ccccn1 | 17 strains | - | - | MIC90 | - | 160 µg/mL
O=c1[nH]c(=O)n(COCCO)cc1I | ATCC 25291 | - | - | EC50 | - | >100 µg/mL
Cc1cn2c(C(=O)NCc3ccc(C4CCN(c5ccc(OC(F)(F)F)cc5)CC4)c(F)c3)c(C)nc2s1 | - | fluorescence | - | inhibition | 0.33 µM | 85%
CC(C)(C)c1ccc(NC(=O)NNC(=O)c2ccncc2)cc1 | MY330/88 | broth dilution | 14 d | MIC100 | - | 62.5 µM
CC1COc2c(N3CCN(C)CC3)c(F)cc3c(=O)c(C(=O)O)cn1c23 | 36 strains | - | - | MIC90 | - | 12.5 µg/mL
Cc1nc2ccc(Cl)cn2c1C(=O)NCc1ccc(N2CCN(c3ccc(OC(F)(F)F)cc3)[C@H](C)C2)c(F)c1.Cl | - | fluorescence | - | inhibition | 0.0069 µM | 85%
CC(=O)OC[C@H]1O[C@@H](n2cc(/C=C/I)c(=O)[nH]c2=O)C[C@@H]1OC(C)=O | ATCC 25291 | - | - | EC50 | - | >50 µg/mL
Cc1ccc(C(=O)CC(N/N=C(\N)c2ccccn2)c2ccccn2)cc1 | 17 strains | - | - | MIC50 | - | 80 µg/mL
CC(C)c1ccc(NC(=O)NNC(=O)c2ccncc2)cc1 | MY330/88 | broth dilution | 14 d | MIC100 | - | 16 µM
COc1ccc2oc(=S)n(-c3ccc(Cl)cc3)c(=S)c2c1 | MY330/88 | - | 21 d | MIC | - | 62.5 µM
Cc1ccc(-n2c(=O)oc3ccccc3c2=O)cc1 | CNCTC MY330/88 | - | - | MIC | - | 62 µM
O=c1[nH]c(=O)n([C@@H]2O[C@H](CO)[C@@H](O)[C@H]2F)cc1F | ATCC 25291 | - | - | EC50 | - | >50 µg/mL
CCc1nc2ccc(Cl)cn2c1C(=O)NCc1ccc(-c2ccc(OC(F)(F)F)cc2)c(F)c1 | - | fluorescence | - | inhibition | 0.056 µM | 85%
N/C(=N\NC(CC(=O)c1ccccc1)c1cccnc1)c1ccccn1 | 17 strains | - | - | MIC50 | - | 160 µg/mL
CC[C@H]1OC(=O)[C@H](C)[C@@H](O[C@H]2C[C@@](C)(OC)[C@@H](O)[C@H](C)O2)[C@H](C)[C@@H](O[C@@H]2O[C@H](C)C[C@H](N(C)C)[C@H]2O)[C@](C)(O)C[C@@H](C)CN(C)[C@H](C)[C@@H](O)[C@]1(C)O | - | - | - | Median MIC | - | 8 µg/mL
Cc1ccc2oc(=O)n(-c3ccc([N+](=O)[O-])cc3)c(=O)c2c1 | CNCTC MY330/88 | - | - | MIC | - | 16 µM

Repeating the first 6 entries:

smiles,strain,method,setting,read-out,dose,value
CO[C@H]1/C=C/O[C@@]2(C)Oc3c(C)c(O)c4c(O)c(c(/C=N/N5CCN(C6CCCC6)CC5)c(O)c4c3C2=O)NC(=O)/C(C)=C\C=C\[C@H](C)[C@H](O)[C@@H](C)[C@@H](O)[C@@H](C)[C@H](OC(C)=O)[C@@H]1C,36 strains,-,-,MIC90,-,50 µg/mL
C=Cc1cn(COC(CO)CO)c(=O)[nH]c1=O,ATCC 25291,-,-,EC50,-,>100 µg/mL
Cc1cccc(C(N)=Nc2nc(-c3ccccn3)cc3ccccc23)c1,101,-,-,MBC,-,2 µg/mL
COc1ccc(Nc2nnc(-c3ccncc3)o2)cc1,MY330/88,broth dilution,21 d,MIC100,-,>125 µM
O=c1[nH]c(=O)n([C@H]2C[C@H](O)[C@@H](CO)O2)cc1Cl,ATCC 25291,-,-,EC50,-,>50 µg/mL
O=c1[nH]c(=O)n(COC(CO)CO)cc1I,ATCC 25291,-,-,EC50,-,>100 µg/mL